A mixed list of measured activities; the numbers were collected in NIAID ChemDB.

Common to all: tests in culture; organism: Mycobacterium tuberculosis

ECn is the concentration giving n% inhibition of infection, replication or growth. Blank or dashed fields: not listed here. MIC bound: limit read from a one-dose screen. Neighbouring rows are from separate reports. MIC50, MIC90 and the like: level of inhibition, or share of isolates inhibited. Percent inhibition refers to the dose given; in toxicity tests it is the harm to the cells. Two numbers with a dash give a range or band.

smiles	tested at	measure	method	mutations	strain	value
CC[C@@H](CO)NCCN[C@@H](CC)CO	-	MIC	-	-	MDR-TB	61.18 µM
CC(=O)Oc1ccc(C2CC(=O)c3ccc(OC(C)=O)cc3O2)cc1	-	MIC	BACTEC / radiometric	-	H37Rv	100 µg/mL
Cc1ccc2c(Cl)c(C)c(N3CCOCC3)nc2n1	6.25 µg/mL	inhibition	BACTEC	-	H37Rv	0%
O=C(Nc1ccccc1)c1cc(/C=C/c2ccc(-c3cccs3)s2)nc2ccccc12	-	MIC	fluorescence	-	H37Rv	>6.25 µg/mL
OC(/C=C\c1ccccc1)(Cc1cc(-c2ccccc2)n[nH]1)c1ccccc1	6.25 µg/mL	inhibition	resazurin	-	H37Rv	-2%
CC(C)(C)c1ccc(N2CCN(Cc3ccc([N+](=O)[O-])o3)CC2)cc1	-	MIC	resazurin	Isoniazid- and rifampicin-resistant	MDR	>0.029 µM
CN1C(=S)NC(C)(C)C1=S	-	MIC	-	-	B814	100 µg/mL
O=C(/C=C/c1ccccc1)c1ccc(O)cc1O	-	MIC	BACTEC / radiometric	-	H37Rv	25 µg/mL
NNC(=O)c1ccncc1	-	MIC	visual reading	MDR	-	>128 µg/mL
COc1ccc(/C=C/C(=O)c2cc3c(cc2O)OC2(CCN(C(=O)OC(C)(C)C)CC2)CC3=O)c(OC)c1	-	MIC	agar	-	H37Rv	25 µg/mL
CC1(C)S[C@@H]2[C@H](NC(=O)[C@H](N)c3ccc(O)cc3)C(=O)N2[C@H]1C(=O)O	-	MIC50	-	-	9 strains (MDR)	64 µg/mL
COc1cccc(/C=C/C(=O)c2cc3c(cc2O)OC2(CCCCC2)CC3=O)c1	-	MIC	agar	-	H37Rv	>25 µg/mL
CC[C@H]1OC(=O)[C@H](C)[C@@H](O[C@H]2C[C@@](C)(OC)[C@@H](O)[C@H](C)O2)[C@H](C)[C@@H](O[C@@H]2O[C@H](C)C[C@H](N(C)C)[C@H]2O)[C@](C)(OC)C[C@@H](C)C(=O)[C@H](C)[C@@H](O)[C@]1(C)O	-	MBC	-	-	Kurono	>128 µg/mL
CC1COc2c(N3CCN(C)CC3)c(F)cc3c(=O)c(C(=O)O)cn1c23	-	MIC50	-	-	24 strains (drug-susceptible)	1 µg/mL
CC12CCC(O)CC1CCC1C2CCC2(C)C(NC(=O)C3CCCN3C(=O)OCc3ccccc3)CCC12	12.5 µg/mL	inhibition	BACTEC	-	H37Rv	-12%
CC1COc2c(N3CCN(C)CC3)c(F)cc3c(=O)c(C(=O)O)cn1c23	-	MIC50	-	-	-	3.13 µg/mL
Cc1ccc(NC(=S)NC(=O)C(C)Oc2ccccc2)cc1Cl	-	MIC bound	BACTEC	-	H37Rv	≤12.5 µg/mL
CO/N=C1/C(=O)N(CCOCCOCCOCCN2C(=O)C(=O)c3cc(F)ccc32)c2ccc(F)cc21	-	MIC	visual reading	-	H37Rv	64 µg/mL
O=C1N=c2ccc(Br)cc2=C1c1sc(=O)n(Cc2nc3ccccc3[nH]2)c1O	-	MIC bound	BACTEC	-	H37Rv	>12.5 µg/mL
CCCC(=O)O/N=C1\c2ccccc2-c2c1c(N1CCN(c3ccccn3)CC1)nc1ccc(Br)cc21	-	MIC90	resazurin	-	H37Rv	>6.25 µg/mL
Cc1cc2nc(C(=O)NC[C@H](C)CO)cc(-c3ccccc3F)c2c(C)c1-c1ccncc1	-	MIC90	fluorescence	-	-	0.8 µM
NC(=O)CCCCC1CCSS1	-	MIC bound	BACTEC	-	H37Rv	>12.5 µg/mL
CCO/N=C1/C(=O)N(CCOCCOCCOCCN2C(=O)C(=O)c3cc(F)ccc32)c2ccc(C)cc21	-	MIC	visual reading	-	H37Rv	128 µg/mL
CCCC(=O)OC1(C)c2ccccc2-c2c1c(-n1ccnc1)nc1ccc(Br)cc21	-	MIC90	resazurin	-	H37Rv	>6.25 µg/mL
CC1COc2c(N3CCN(C)CC3)c(F)cc3c(=O)c(C(=O)O)cn1c23	-	MIC50	-	-	18 isolates	1 µg/mL
O=C(/C=C/c1c[nH]c2ccccc12)c1ccccc1Cl	-	MIC	BACTEC / radiometric	-	H37Rv	>100 µg/mL
O=C(c1ccc(Br)cc1)C1SC2(C(=O)c3ccc(Br)cc3)SC(C(=O)c3ccc(Br)cc3)C(C(=O)c3ccc(Br)cc3)SC2(C(=O)c2ccc(Br)cc2)SC1C(=O)c1ccc(Br)cc1	12.5 µg/mL	inhibition	BACTEC	-	H37Rv	-7%
OO	-	EC50	-	-	H19	>0.0005 µM
CC(NC(=O)C1CC(O)CN1C(=O)CN)C(=O)O	12.5 µg/mL	inhibition	BACTEC	-	H37Rv	-12%
COc1ccc(/C=C/C(=O)c2cc3c(cc2O)OC2(CCN(C(=O)OC(C)(C)C)CC2)CC3=O)cc1	-	MIC	agar	-	H37Rv	25 µg/mL
CC1CCN(C(=S)S)CC1.CC1CCNCC1	-	MIC	-	-	PAS-R	1.6 µg/mL
O=C(Nc1ccccc1)c1cc(-c2ccc([N+](=O)[O-])s2)nc2ccccc12	-	MIC	fluorescence	-	H37Rv	>6.25 µg/mL
C=C(C)C1CCc2c(C)cc(O)c(C(=O)O)c2C1	12.5 µg/mL	inhibition	BACTEC	-	H37Rv	-1%
C[C@H](c1ccccc1)N1C/C(=C/c2ccccc2Br)[C@]2(ON=C(c3ccc(Cl)cc3)O2)C2(C1)ON=C(c1ccc(Cl)cc1)[C@H]2c1ccccc1Br	-	MIC	-	-	H37Rv	3.71 µM
CC1(C)NC(=S)NC1=O	-	MIC	-	-	B814	>100 µg/mL
O=C(/C=C/c1ccc2c(c1)OCO2)c1cc2c(cc1O)OC1(CCCCC1)CC2=O	-	MIC	agar	-	H37Rv	>25 µg/mL
COc1ccc(CNC(=O)C2C(=O)C(=O)N(Cc3ccc(OC)c(OC)c3)C2=O)cc1OC	6.25 µg/mL	inhibition	resazurin	-	H37Rv	11%
c1ccc(Nc2cnc3cc4ccccc4cc3n2)cc1	-	EC50	-	-	Erdman	10–20 µM
NC(Cc1ccc(O)cc1)C(=O)N/N=C/c1ccccc1O	-	MIC bound	BACTEC	-	H37Rv	>12.5 µg/mL
CC(C)(C)OC(=O)N1CCC2(CC1)CC(=O)c1cc(C(=O)/C=C/c3ccccc3)c(O)cc1O2	-	MIC	agar	-	H37Rv	>25 µg/mL
CCOC(=O)C1=C(C)O/C(=C\c2ccc(OC)cc2)C1=O	-	MIC bound	BACTEC	-	H37Rv	>12.5 µg/mL
O=c1oc2ccc(Cl)cc2c(=O)n1-c1ccc(Cl)c(Cl)c1	-	MIC	-	-	My 331/88	4 µM
CN(C)[C@@H]1C(=O)C(C(=O)NCNC2CC(C)(C)N(O)C(C)(C)C2)=C(O)C2(O)C(=O)C3=C(O)c4c(O)cccc4[C@@](C)(O)C3CC12	-	MIC bound	BACTEC	-	H37Rv	≤12.5 µg/mL
O=Nc1c2c(-n3ccnc3)[nH]c3ccc(Br)cc3c-2c2ccccc12	-	MIC90	resazurin	-	H37Rv	<0.39 µg/mL
Cc1ccc2c(N3CCCCC3)c(Cc3ccccc3)c(N3CCCCC3)nc2n1	-	EC50	BACTEC	-	H37Rv	<6.25 µg/mL
C[C@H](c1ccccc1)N1C/C(=C\c2cccc3ccccc23)[C@@]2(ON=C(c3ccc(Cl)cc3)O2)[C@@]2(C1)ON=C(c1ccc(Cl)cc1)[C@@H]2c1cccc2ccccc12	-	MIC	-	-	MDR-TB	0.99 µM
COc1ccc(C(=O)/C=C/c2ccc(OC(C)=O)cc2)c(OC)c1	-	MIC	BACTEC / radiometric	-	H37Rv	>100 µg/mL
S=c1oc2ccc(Cl)cc2c(=S)n1-c1cccc(Cl)c1	-	MIC	-	-	My 331/88	2 µM
CC(C)c1ccc(C2=NO[C@]3(O2)/C(=C/c2cccc4ccccc24)CN([C@H](C)c2ccccc2)C[C@@]32ON=C(c3ccc(C(C)C)cc3)[C@@H]2c2cccc3ccccc23)cc1	-	MIC	-	-	H37Rv	15.59 µM
S=c1oc2ccc(Cl)cc2c(=S)n1-c1ccccc1	-	MIC	-	-	My 331/88	1 µM
CO/N=C1/C(=O)N(CCOCCOCCOCCN2C(=O)C(=O)c3cc(C)ccc32)c2ccccc21	-	MIC	visual reading	MDR	-	128 µg/mL
O=C(O)c1cc(-c2ccc([N+](=O)[O-])s2)nc2ccccc12	-	MIC	fluorescence	-	H37Rv	>6.25 µg/mL
Clc1ccc2c(N3CCCCC3)cc(N3CCOCC3)nc2n1	6.25 µg/mL	inhibition	BACTEC	-	H37Rv	8%
CCCn1c(C)nc2c1C(=O)c1ccccc1C2=O	6.25 µg/mL	inhibition	resazurin	-	H37Rv	50%
O=C(Nc1nc(-c2ccccc2)cs1)c1cc(-c2cccs2)nc2ccccc12	-	MIC	fluorescence	-	H37Rv	>6.25 µg/mL
O=c1oc2ccc(Cl)cc2c(=S)n1-c1ccc(Cl)c(Cl)c1	-	MIC	-	-	My 331/88	1 µM
Cc1noc(NS(=O)(=O)c2ccc(Nc3nc(CC(=O)Nc4ccccc4)cs3)cc2)c1C	-	MIC bound	BACTEC	-	H37Rv	>12.5 µg/mL
O=C(O)c1cc(-c2ccc(-c3cccs3)s2)nc2ccccc12	-	MIC	fluorescence	-	H37Rv	>6.25 µg/mL
CCOC(=O)c1cc([N+](=O)[O-])c[nH]1	6.25 µg/mL	inhibition	BACTEC	-	H37Rv	0%
CCCC[C@@H](O)CN1CCC(COc2ccc(C(=O)c3ccc(Cl)cc3)c(Cl)c2)CC1	-	MIC	resazurin	-	-	6.25 µg/mL
CC1=CC(=O)C(/C=C(\C)[N+](=O)[O-])=CC1=O	-	MIC	BACTEC	-	H37Rv	64 µg/mL
O=c1oc2ccc(Cl)cc2c(=O)n1-c1ccc(Cl)cc1	-	MIC	-	-	My 331/88	4 µM
CC(C)c1ccc(C2=NO[C@]3(O2)/C(=C/c2ccc(Cl)cc2Cl)CN([C@H](C)c2ccccc2)C[C@@]32ON=C(c3ccc(C(C)C)cc3)[C@@H]2c2ccc(Cl)cc2Cl)cc1	-	MIC	-	-	H37Rv	14.89 µM
CNc1c([N+](=O)[O-])cc2[nH]c(C)nc2c1[N+](=O)[O-]	6.25 µg/mL	inhibition	resazurin	-	H37Rv	-33%
CO[C@H]1/C=C/O[C@@]2(C)Oc3c(C)c(O)c4c(O)c(c(/C=N/N5CCN(C)CC5)c(O)c4c3C2=O)NC(=O)/C(C)=C\C=C\[C@H](C)[C@H](O)[C@@H](C)[C@@H](O)[C@@H](C)[C@H](OC(C)=O)[C@@H]1C	-	MIC	-	-	10 isolates	>32 µg/mL
CO/N=C1/C(=O)N(CCOCCOCCOCCN2C(=O)C(=O)c3cc(F)ccc32)c2ccc(C)cc21	-	MIC	visual reading	MDR	-	128 µg/mL
CCN1C(=O)C(=O)N(CC)C1=[Se]	-	MIC	-	-	B814	1.25 µg/mL
CO[C@@]12[C@H](COC(N)=O)C3=C(C(=O)C(C)=C(N)C3=O)N1C[C@H]1[C@@H]2N1C(=O)C1N2C(=O)[C@@H](NC(=O)Cc3ccccc3)[C@H]2SC1(C)C	-	MIC	-	-	PAS-R	0.4 µg/mL
CC(=O)Oc1ccc(C2CC(=O)c3ccc(O)cc3O2)cc1	-	MIC	BACTEC / radiometric	-	H37Rv	>100 µg/mL
CCO/N=C1/C(=O)N(CCOCCOCCOCCN2C(=O)C(=O)c3cc(F)ccc32)c2ccc(F)cc21	-	MIC	visual reading	MDR	-	128 µg/mL
CC(C)CC(NC(=O)OCC1c2ccccc2-c2ccccc21)C(=O)O/N=C1\c2ccccc2-c2c1c(N1CCN(c3ccccn3)CC1)nc1ccc(Br)cc21	-	MIC90	resazurin	-	H37Rv	>6.25 µg/mL
O/N=C1\CC(c2ccc(O)cc2)Oc2cc(O)ccc21	-	MIC	BACTEC / radiometric	-	H37Rv	25 µg/mL
CCCCCCCCCC(=O)O/N=C1\c2ccccc2-c2c1c(N1CCN(c3ccccn3)CC1)nc1ccc(Br)cc21	-	MIC90	resazurin	-	H37Rv	>6.25 µg/mL
O=c1oc2ccc(Cl)cc2c(=S)n1-c1ccc(Br)cc1	-	MIC	-	-	My 331/88	1 µM
COc1ccc(C(=O)/C=C/c2ccc(OC(=O)c3ccccc3)cc2)c(OC)c1	-	MIC	BACTEC / radiometric	-	H37Rv	25 µg/mL
CCCc1cc(=O)oc2c3c(c4c(c12)OC(C)(C)C=C4)O[C@@H](C)[C@H](C)[C@@H]3O	-	MIC	BACTEC	-	H37Rv	<12.5 µg/mL
Cc1ccc2c(N3CCOCC3)c(C)c(N3CCCCC3)nc2n1	6.25 µg/mL	inhibition	BACTEC	-	H37Rv	11%
O=C(O)c1cc(/C=C\c2cccs2)nc2ccccc12	-	MIC	fluorescence	-	H37Rv	>6.25 µg/mL
Cn1c(=O)c2nc3c(=O)n(C)c(=O)n(C)c3nc2n(C)c1=O	-	MIC bound	BACTEC	-	H37Rv	>12.5 µg/mL
COc1ccc(C(=O)/C=C/c2ccc(O)cc2)c(OC)c1	-	MIC	BACTEC / radiometric	-	H37Rv	100 µg/mL

For reference, 11 entries again:

smiles,tested at,measure,method,mutations,strain,value
COc1ccc(C(=O)/C=C/c2ccc(OC(C)=O)cc2)c(OC)c1,-,MIC,BACTEC / radiometric,-,H37Rv,>100 µg/mL
CCCC(=O)OC1(C)c2ccccc2-c2c1c(-n1ccnc1)nc1ccc(Br)cc21,-,MIC90,resazurin,-,H37Rv,>6.25 µg/mL
OC(/C=C\c1ccccc1)(Cc1cc(-c2ccccc2)n[nH]1)c1ccccc1,6.25 µg/mL,inhibition,resazurin,-,H37Rv,-2%
COc1ccc(CNC(=O)C2C(=O)C(=O)N(Cc3ccc(OC)c(OC)c3)C2=O)cc1OC,6.25 µg/mL,inhibition,resazurin,-,H37Rv,11%
O=C(O)c1cc(/C=C\c2cccs2)nc2ccccc12,-,MIC,fluorescence,-,H37Rv,>6.25 µg/mL
Cc1ccc2c(Cl)c(C)c(N3CCOCC3)nc2n1,6.25 µg/mL,inhibition,BACTEC,-,H37Rv,0%
OO,-,EC50,-,-,H19,>0.0005 µM
C[C@H](c1ccccc1)N1C/C(=C\c2cccc3ccccc23)[C@@]2(ON=C(c3ccc(Cl)cc3)O2)[C@@]2(C1)ON=C(c1ccc(Cl)cc1)[C@@H]2c1cccc2ccccc12,-,MIC,-,-,MDR-TB,0.99 µM
CO/N=C1/C(=O)N(CCOCCOCCOCCN2C(=O)C(=O)c3cc(F)ccc32)c2ccc(C)cc21,-,MIC,visual reading,MDR,-,128 µg/mL
CNc1c([N+](=O)[O-])cc2[nH]c(C)nc2c1[N+](=O)[O-],6.25 µg/mL,inhibition,resazurin,-,H37Rv,-33%
CCCn1c(C)nc2c1C(=O)c1ccccc1C2=O,6.25 µg/mL,inhibition,resazurin,-,H37Rv,50%